Laboratory results: the supplement of paper PMC12637763
Substitutions are numbered along the chain they refer to. The list shows a part of the results. Env chains of viruses from a treatment-interruption trial, translated from the printed DNA. IC50 / IC80 of two broadly neutralizing antibodies; lower = more sensitive virus; >50 µg/ml means not reached and <0.001 µg/ml is below the lowest dose. No active / inactive call.

B1: HIV-1 Env, reservoir clone (protein)
chain: MRVKGIKRNCQRLWKWGTMLLGMLMICSAADNLWVTVYYGVPVWKDATTTLFCASDAKGYETEVHNVWATHACVPTDPSPNEVVLENVTENFNMWKNDMVEQMHEDIISLWDQSLKPCVKLTPLCVTLKCTNATSCTSANATKNVRCDATDSSGNTTTNGTQGVTQGVRTETDEIKNCTFNITTSTRENVEGRALFSDLDLVYDSSAQSYRLIRCNTSVITQACPKVSFEPIPIHYCAPAGFAILKCRDKGFNGTGPCKNVSTVQCTHGIRPVVSTHLLLNGSLAEGKVVIRSENFTDNAKTIIVQLKEAVNMTCIRPNNNTRKRMSLGPGKVWYSTGDIIGDIRKAQCNLSSQAWNKTLHQVVAKLREQFENKTIIFKPPPGGDPEILMHNFNCGGEFFYCNSTPLFNTTWLNSTWNSTMDRNSSDTSEITLQCRIKQIINMWQGVGRAMYAPPIKGQIKCSSNITGLLLTRDGGNNITSTNETFRPGGGNMKDNWRSELYKYKVIKIEPLGVAPTKARRRVVQREKRAVGVIGAMFLGFLGAAGSTMGAASLTLTVQARQLLSGIVQQQNNLLKAIEAQQQLLRLTVWGIKQLQARVLAVERYLRDQQLLGIWGCSGKLICTTSVPWNASWSNKSVDDIWGNMTWMQWEREIDNYTGIIYNLLEKSQNQQEKNEQELLELDKWASLWNWFDISNWLWYIKIFIMVVGGLIGLRIVFAVLSVVNRVRQGYSPLSFQTRFPAPRGPDRPEGIEEGGGERDRGRSDRLVTGLLELIWDDLRSLCIFSYHRLSDLLLIAARIVELLGRRGWEVLKYWWNLLQYWSQELKNSAVSLLNATAIAVAEGTDRIIEAVLRIYRAIIHIPTRIRQGLERALL
B2: HIV-1 Env, reservoir clone (protein)
chain: MRVKGIKRNCQRLWRWGTMLLEMLMICSAADNLWVTVYYGVPVWKDATTTLFCASDAKGYETEVHNVWATHACVPTDPSPNEVVLENVTENFNMWKNDMVEQMHEDIISLWDQSLKPCVKLTPLCVTLHCTNATSNVPLNCTGATQDVRCNTTESSGNSTTNSTKVSTTATDEIKNCTFNITTSTRENVEGRALFSDLDLVYNSSAQSYRLIRCNTSVITQACPKVSFEPIPIHYCAPAGFAILKCRDKGFNGTGPCKNVSTVQCTHGIRPVVSTHLLLNGSLAEGGVVIKSENFSNNAKTIIVQLAEAVNITCSRPNNNTRKRMSLGPGKVWYSTGDIIGDIRKAHCNLSGSAWNKTLHQVVAKLREQFENKTIIFKPPPGGDPEILMHNFICGGEFFYCNSTPLFNTTWHNSTWNSTMGNTEGSNDTNITLHCRIKQIINMWQGVGRAMYAPPIKGQIRCSSNITGILLTRDGGNNITTSTNETFRPGGGNMKDNWRSELYKYKVIKIEPLGVAPTKARRRVVQREKRAVGVIGAMFLGFLGAAGSTMGAASLTLTVQARQLLSGIVQQQNNLLKAIEAQQQLLRLTVWGIKQLQARVLAVERYLRDQQLLGIWGCSGKLICTTSVPWNASWSNKSVDDIWGNMTWMQWEREIDNYTGIIYNLLEKSQNQQEKNEQELLELDKWASLWNWFDISNWLWYIKIFIMVVGGLIGLRIVFAVLSIVNRVRQGYSPLSFQTRFPVPRGPDRPEGIEEGGGERDRGRSDRLVTGLLELIWDDLRSLCIFSYHRLSDLLLIAARIVELLGRRGWEALKYWWNLLQYWSQELKNSSVSLLNATAIAVAEGTDRIIEAVLRIYRAIIHIPTRIRQGLERALL
B3: HIV-1 Env, reservoir clone (protein)
chain: B2 chain with E22G
B4: HIV-1 Env, reservoir clone (protein)
chain: MRVKEIKRNCQRLWKWGTMLLGMLMICSAADNLWVTVYYGVPVWKDATTTLFCASDAKGYETEVHNVWATHACVPTDPSPNEVVLENVTENFNMWKNDMVEQMHEDIISLWDQSLKPCVKLTPLCVTLHCTNATNNVTLNCTANADVKCNTTGSSGHNATNGTMVFKTETDEIKNCTFNITTSTREHVKGHALFSDLDLVYNDKNQSYRLIRCNTSVITQACPKVSFEPIPIHYCAPAGFAILKCRDKGFNGTGPCKNVSTVQCTHGIRPVVSTHLLLNGSLAEGEVVIRSENFTNNAKTIIVQLAEAVNISCSRPNNNTRKRMSLGPGKVWYSTGDIIGDIRKAHCNLSSQAWNKTLHQVVAKLREQFENKTIIFKPPPGGDPEIIMHSFNCGGEFFYCNSTPLFNSTWHNSTWNSTMDRNFSDTSEITLQCRIKQIINMWQGVGRAMYAPPIKGQIRCSSNITGLLLTRDGGNTITTSTNETFRPGGGNMKDNWRSELYKYKVIKIEPLGVAPTKARRRVVQREKRAVGVIGAMFLGFLGAAGSTMGAASLTLTVQARQLLSGIVQQQNNLLKAIEAQQQLLRLTVWGIKQLQARVLAVERYLRDQQLLGIWGCSGKLICTTSVPWNASWSNKSVDDIWGNMTWMQWEREIDNYTGIIYNLLEKSQNQQEKNEQELLELDKWASLWNWFDISNWLWYIKIFIMVVGGLVGLRIVFAVLSIVNRVRQGYSPLSFQTRFPVPRGPDRPEGIEEGGGERDRGRSDRLVTGLLELIWDDLRSLCIFSYHRLSDLLLIAARIVELLGRRGWEVLKYWWNLLQYWSQELKNSSVSLLNATAIAVAEGTDRIIEAVLRIYRAIIHIPTRIRQGLERALL
B5: HIV-1 Env, reservoir clone (protein)
chain: MRVKGIKRNCQRLWKWGTMLLGMLMICSAADNLWVTVYYGVPVWKDATTTLFCASDAKGYETEVHNVWATHACVPTDPSPNEVVLENVTENFNMWKNDMVEQMHEDIISLWDQSLKPCVKLTPLCVTLHCTNATNNVTLNCTANADVKCNITGGSGHNATNGTMVFKTETDEIKNCTFNITTSTREHVKGHALFSDLDLVYNDKNQSYRLIRCNTSVITQACPKVSFEPIPIHYCAPAGFAILKCRDKGFNGTGPCKNVSTVQCTHGIRPVVSTHLLLNGSLAEGGVVIKSENFSDNAKTIIVQLAETVNITCSRPNNNTRKRMSLGPGKVWYSTGDIIGDIRKAHCNLSRSAWNKTLHQVVAKLREQFENKTIIFKSPPGGDPEILMHNFICGGEFFYCNSTPLFNTTWHNSTWNSTMGNTEGSNDTNITLHCRIKQIINMWQGVGRAMYAPPIKGQIRCSSNITGILLTRDGGNNITTSTNETFRPGGGNMKDNWRSELYKYKVIKIEPLGVAPTKARRRVVQREKRAVGVIGAMFLGFLGAAGSTMGAASLTLTVQARQLLSGIVQQQNNLLKAIEAQQQLLRLTVWGIKQLQARVLAVERYLRDQQLLGIWGCSGKLICTTSVPWNASWSNKSVDDIWGNMTWMQWEREIDNYTGIIYNLLEKSQNQQEKNEQELLELDKWASLWNWFDISNWLWYIKIFIMVVGGLIGLRIVFAVLSVVNRVRQGYSPLSFQTRFPVPRGPDRPEGIEEGGGERDRGRSDRLVTGLLELIWDDLRSLCIFSYHRLSDLLLIAARIVELLGRRGWEVLKYWWNLLQYWSQELKNSAVSLLNATAIAVAEGTDRIIEAVLRIYRAIIHIPTRIRQGLERALL
B6: HIV-1 Env, reservoir clone (protein)
chain: MRVKGIKRNCQRLWKWGTMLLGMLMICSAADNLWVTVYYGVPVWKDATTTLFCASDAKGYETEVHNVWATHACVPTDPSPNEVVLENVTENFNMWKNDMVEQMHEDIISLWDQSLKPCVKLTPLCVTLHCTNATSNVTLNCTGATKDGRCNTTVSSGNNTTDGTQVVRTETDEIKNCTFNITTSTRENVKGHALFSDLDIVPIDNNDNSSDTNYKLIRCNTSVITQACPKVSFEPIPIHYCAPAGFAILKCRDKGFNGTGPCKNVSTVQCTHGIRPVVSTHLLLNGSLAEGGVVIKSENFSDNAKTIIVQLADAVNITCSRPNNNTRKRMSLGPGKVWYSTGDIIGDIRKAHCNLSRSAWNKTLHQVVAKLREQFGNKTIIFKPPPGGDPEILMHNFICGGEFFYCNSTQLFNSTWNSTMDSSTGESNDTNITLHCKIKQIINMWQEVGRAMYAPPIKGQIRCSSNITGLLLTRDGGNNIDTPSTNETFRPGGGNMKDNWRSELYKYKVVKIEPLGVAPTKARRRVVQREKRAVGVIGAMFLGFLGAAGSTMGAASLTLTVQARQLLSGIVQQQNNLLKAIEAQQQLLRLTVWGIKQLQARVLAVERYLRDQQLLGIWGCSGKLICTTSVPWNASWSNKSVDDIWENMTWMQWEREIDNYTGIIYNLLEKSQNQQEKNEQELLELDKWASLWNWFDISNWLWYIKIFIMIVGGLVGLRIVFAVLSIVNRVRQGYSPLSFQTRFPAPRGPDRPEGIEEGGGERDRGRSDRLVTGLLELIWDDLRSLCLFSYHRLSDLLLIAARIVELLGRRGWEVLKYWWNLLQYWSQELKNSSVSLLNATAIAVAEGTDRIIEVVLRIYRAIIHIPTRIRQGLERALL

What was measured:
[1] = biological target: antibody 10-1074; assay: neutralization IC50; higher = virus less sensitive to the antibody
Experimental: (§1)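 Pseudovirus bearing the Env chain mixed with antibody, from 50 µg/ml in fivefold dilutions, on TZM-bl reporter cells, in duplicate.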

[2] = biological target: antibody 3BNC117; assay: as above
Experimental: as §1

[3] = biological target: antibody 10-1074; assay: neutralization IC80; higher = virus less sensitive to the antibody
Experimental: as §1

[4] = biological target: antibody 3BNC117; assay: as above
Experimental: as §1

Row | Binder | neutralization IC50 [1] [µg/mL] | neutralization IC50 [2] [µg/mL] | neutralization IC80 [3] [µg/mL] | neutralization IC80 [4] [µg/mL]
1 | B1 | 0.013 | 0.003 | 0.306 | 0.012
2 | B2 | 0.145 | 0.006 | 1.82 | 0.032
3 | B3 | 0.145 | 0.006 | 1.82 | 0.032
4 | B4 | 0.19 | 0.009 | 2.25 | 0.028
5 | B5 | 0.094 | 0.039 | 0.942 | 0.247
6 | B6 | 0.057 | 0.033 | 0.476 | 0.109
